# Reference: PubChem BioAssay AID372 (MTDP, 2006)
# Only a part is listed here, and it is no random draw. The source made the active and inactive calls. Cut-off read from the data, not from the text of the source: active = inhibition above about 50%; inactive = the rest.
# Molecular target: Gag-Pol polyprotein (Human immunodeficiency virus type 1 group M subtype B (isolate HXB2)) (UniProt P04585)
# Assay: RNase H inhibition, HIV 1 Gag Pol polyprotein, FRET biochemical assay, screening (AID 372)
# Conditions: HIV-1 RT RNase H, FRET RNA/DNA substrate fluorescence; at 10 µM; stronger effect = higher value
row,SMILES,inhibition
1,N#CC(C#N)=Cc1ccc2c(c1)OCO2,inactive: 12%
2,CCCN1CCC(Nc2cccc(F)c2)CC1,inactive: 6%
3,CCOC(=O)N1CCC(Nc2cccc(C)c2)CC1,inactive: 8%
4,N#CC(C#N)=Cc1cc2c(cc1[N+](=O)[O-])OCO2,inactive: 0%
5,CCOc1cc(C=C(C#N)C#N)ccc1O,inactive: 11%
6,CC1CN(CCc2ccccc2)C(C)CC1=O (configuration not stated),inactive: 8%
7,CCOP(=S)(CC(=O)N(CC)CC)OCC,inactive: 0%
